From paper PMC7038234, “Screening of Natural Extracts for Inhibitors against Japanese Encephalitis Virus Infection” (Antimicrobial Agents and Chemotherapy, 2020)

The compounds below were run on JEV strain AT31. Details: Primary screening of 1034 compounds in the natural extracts library.

Compound | Inhibition (%)
CC[C@H]1CN2CCc3cc(OC)c(OC)cc3[C@@H]2C[C@@H]1C[C@H]1NCCc2cc(O)c(OC)cc21.Cl [Cephaeline hydrochloride] | 11.3914
Hosenkoside C | 19.2389
CCCCCCCCC[C@H](O)CC(=O)CCc1ccc(O)c(OC)c1 [10-Gingerol] | -112.021
O=C(O)C=CCCCCCCCO [10-Hydroxy-2-decenoic acid] | 8.183
C[C@@H]1O[C@@H](O[C@H]2[C@H](O)[C@@H](O)[C@H](OC[C@H]3O[C@@H](OC(=O)[C@]45CCC(C)(C)C[C@H]4C4=CC[C@@H]6[C@@]7(C)CC[C@H](O[C@@H]8OC[C@H](O)[C@H](O)[C@H]8O)[C@@](C)(CO)[C@@H]7CC[C@@]6(C)[C@]4(C)CC5)[C@H](O)[C@@H](O)[C@@H]3O)O[C@@H]2CO)[C@H](O)[C@H](O)[C@H]1O [Hederacoside D] | 21.7662
O=C1c2c(O)cccc2[C@@H]([C@@H]2O[C@H](CO)[C@@H](O)[C@H](O)[C@H]2O)c2cc(CO)cc(O)c21 [Aloin B] | -4.345
Cc1cc(=O)c2c(O)c3c(cc2o1)OC(C)(C)[C@@H](O[C@@H]1O[C@H](CO)[C@@H](O)[C@H](O)[C@H]1O)C3 [Sec-O-Glucosylhamaudol] | -3.913
CCN1C[C@]2(OC(=O)c3ccccc3NC(C)=O)CC[C@H](OC)[C@@]34[C@@H]2C[C@@H]([C@@H]13)[C@@]1(O)C[C@H](OC)[C@H]2C[C@@H]4[C@]1(O)[C@H]2OC [Lappaconitine] | 18.2978
O=C1CCCC2C3CCC[N+]4([O-])CCCC(CN12)C34 (stereo not shown) [oxysophoridine] | 30.3663
CN1C[C@@H]2C[C@H](C1)c1cccc(=O)n1C2 [N-Methylcytisine] | 5.573
COc1ccc(-c2cc(=O)c3c(O)cc(O[C@@H]4O[C@H](CO[C@@H]5O[C@@H](C)[C@H](O)[C@@H](O)[C@H]5O)[C@@H](O)[C@H](O)[C@H]4O)cc3o2)cc1 [Buddleoside] | 3.512
CCOC(=O)c1ccc(O)c(O)c1 [Ethyl 3,4-dihydroxybenzoate] | -6.413
OCC1OC(OCC2OC(OC3OC=CC4C(O)C5OC5(CO)C34)C(O)C(O)C2O)C(O)C(O)C1O (stereo not shown) [Rhmannioside A] | -0.8784
CC(C)=CC1CC(O)(C2CCC3(C)C2CCC2C4(C=O)CCC(OC5OCC(O)C(OC6OCC(O)C(O)C6O)C5OC5OC(C)C(O)C(O)C5O)C(C)(C)C4CCC23C)C(O)O1 (stereo not shown) [gypenoside A] | 12.9654
C/C=C(/C)C(=O)OC(=O)/C(C)=C\C [Angelic anhydride] | 25.9819
OC[C@@H](O)[C@H](O)[C@H](O)[C@@H](O)CO [ducitol] | 15.4889
CCN1C[C@]2(COC)[C@H](O)C[C@H](OC)[C@]34C1[C@H]([C@H](OC)[C@H]23)[C@@]1(OC(C)=O)C[C@H](OC)[C@@]2(O)C[C@@H]4[C@@H]1[C@H]2OC(=O)c1ccc(OC)cc1 [Yunaconitine;Guayewuanine B] | -5.863
Santalol | 28.5828
[Cl-].c1c2c(cc3c1OCO3)-c1cc3ccc4c(c3c[n+]1CC2)OCO4 [Coptisine hydrochloride] | -12.6803
CC(=O)OC1CC2CCC1(C)C2(C)C (stereo not shown) [bomyl acetate] | 3.447
C[C@@H](CO[C@@H]1O[C@H](CO)[C@@H](O)[C@H](O)[C@H]1O)[C@@H]1CC[C@@]2(CC[C@]3(C)[C@H](CC[C@@H]4[C@@]5(C)CC[C@H](O[C@@H]6O[C@H](CO)[C@@H](O)[C@H](O)[C@H]6O[C@@H]6OC[C@@H](O)[C@H](O)[C@H]6O)[C@@](C)(CO[C@@H]6O[C@H](CO)[C@@H](O)[C@H](O)[C@H]6O)[C@@H]5CC[C@]43C)[C@H]2O)CO1 [Hosenkoside M] | -6.853
CC(C)=CCC[C@@](C)(O)[C@H]1CC[C@]2(C)[C@@H]1[C@H](O)C[C@@H]1[C@@]3(C)CC[C@H](O[C@@H]4O[C@H](CO)[C@@H](O)[C@H](O)[C@H]4O)C(C)(C)[C@@H]3CC[C@]12C [20(R)-Ginsenoside Rh2] | 40.7268
